# PubChem BioAssay AID1259414 – Drosophila RNAi Screening Center, 2018
# Assay: 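Fly genes that alter Wolbachia amount inside host cells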 (primary screen)
# System: Drosophila JW18 cells infected with Wolbachia
# Reagent: long dsRNA against Drosophila genes, 0.25 µg dsRNA per well of a 384-well plate
# Timing: 5 days
# Challenge: cells persistently infected with Wolbachia before knock-down; no added drug
# Detection: 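Automated imaging of bacterial rRNA staining divided by host cell count, reported as plate-normalised robust z-score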
# Scale: Wolbachia per cell robust z: higher = more Wolbachia per host cell than the plate typical
# Rule for the call: 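Hit when robust z is 1.5 or more, or -1.5 or less, in at least two of three replicates; excludes dsRNAs with several or no targets, genes not expressed in JW18 and well A1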
# The deposit covers about 24,000 reagents; below is an unselected part of those with a known target gene and a result. Of all reagents, about 1,210 (5%) were called active. 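Inactive calls also include excluded dsRNAs with several or no targets, genes unexpressed in JW18, and well A1, regardless of score.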 A number with no mark means an inactive call. A plus sign joins genes that one reagent is predicted to hit.
Target gene,DRSC id,"Wolbachia per cell robust z, rep 1","Wolbachia per cell robust z, rep 2","Wolbachia per cell robust z, rep 3"
18w,DRSC05029,1.48,1.49,-0.0462
18w,DRSC29700,2.1,0.311,-0.691
Grl62b,DRSC40583,0.0954,-0.138,0.482
CG34292,DRSC38810,-0.692,-0.0739,-0.511
CG42537,DRSC12519,-0.595,0.681,0.267
CG11882,DRSC14425,0.143,0.545,1.1
CG11882,DRSC27909,-0.391,-1.67,-1.31
r-cup,DRSC20475,-2.13 (active),-0.916,-1.55
CG3164,DRSC00572,0.97,-0.35,-0.331
CG3285,DRSC00589,-3.91,0.00652,-0.145
CG14316,DRSC14795,0.474,-3.15,0.103
RfC38 + Nup160,DRSC01997,-2.19,-0.00483,0.723
CG15706,DRSC06577,0.214,-0.134,-0.0961

Reprinted from the entries so far, 3 entries:
Target gene,DRSC id,"Wolbachia per cell robust z, rep 1","Wolbachia per cell robust z, rep 2","Wolbachia per cell robust z, rep 3"
CG3164,DRSC00572,0.97,-0.35,-0.331
CG3285,DRSC00589,-3.91,0.00652,-0.145
CG14316,DRSC14795,0.474,-3.15,0.103

The list goes on:
Target gene,DRSC id,"Wolbachia per cell robust z, rep 1","Wolbachia per cell robust z, rep 2","Wolbachia per cell robust z, rep 3"
Rip11,DRSC20000,0.662,-0.846,0.4
Rip11,DRSC29902,-0.699,-0.281,0.216
l(1)G0320,DRSC18255,0.145,-3.46,-0.953
Ate1,DRSC05925,0.387,0.811,-3.65
Ate1,DRSC24725,1.2,-1.63,0.412
AP-1-2beta,DRSC19336,0.502,0.784,0.87
AP-1-2beta,DRSC23868,1.4,1.96,1.08
CG7990,DRSC19296,-5.62,0.589,0.0967
CG7990,DRSC23195,0.943,0.851,-0.146
CG7990,DRSC26580,0.338,-0.72,1.16
CG6985,DRSC16164,-0.495,-5.66,-0.802
CG6985,DRSC24923,-0.0123,0.964,0.161
Rbcn-3B,DRSC18574,0.435,-0.972,-1.26
CG7912,DRSC16343,0.327,0.501,0.519
SmD2,DRSC12536,0.732,-0.113,1.91
SmD2,DRSC28703,-0.882,1.44,0.809
